From US20230381142A1, “ANTILEISHMANIAL COMPOUNDS, COMPOSITIONS AND USE THEREOF” (TRUSTEES OF BOSTON UNIVERSITY, priority 2022, published 2023)

Experiments:
[1] = tested on: L. donovani intracellular amastigotes in B10R cells; assay: UCSD L. donovani infection assay (Assay Conditions D); assay type: cell-based; conditions: for SI Host cell potency/L. donovani potency: rows whose L. donovani potency is in B10R cells (d); for SI: UCSD assay, CC50 versus L. donovani infection EC50
Description: (§1) Assay Conditions D: B10R cells (CVCL_0155) were seeded at 300 cells/well, and L. donovani WT promastigotes in stationary phase (7th day after passage) were added at 6,000 parasites/well (ratio of 20 parasites/cell). Both cells and parasites were seeded in DMEM High-Glucose medium (Gibco, cat. no. 11995065) containing 5% Fetal Bovine Serum (Sigma-Aldrich, cat. no. F2442) and 1% Penicillin-Streptomycin (Gibco, cat. no. 15140122). Cells and parasites were incubated in the presence of the compounds for 72 h at 37° C. and 5% C02. Plates were then fixed with 4% formaldehyde solution for at least 1 h, then washed with 1×PBS and stained with 5 μg/mL DAPI. Plates were read using an ImageXpress microscope (Molecular Devices) and analyzed by MetaXpress software (Molecular Devices) using a custom module optimized for this assay. […] Compounds were tested in a 10-point 2-fold serial dilution in 3 technical replicates, and 2 biological replicates. After 72 h, plates were fixed and stained with DAPI as described above. Images were acquired on an ImageXpress microscope, and analyzed using the MetaXpress custom module.
as §1, with “Compounds were obtained as 0.2 μmoles of dried film for primary single point screening. Each compound was diluted in DMSO to 10 μM final testing concentration. These compounds were tested in 2 biological replicates. The compounds were pre-spotted onto 384-well assay plates in single concentration.” for “Assay Conditions D:”, “CO2.” for “C02.”, “module. The DRCs were plotted, half-effective concentration (EC50) and half-cytotoxic concentration (CC50) were calculated using GraphPad Prism Software, version 6.05 (GraphPad Software, San Diego, CA).” for “module.”

[2] = tested on: L. donovani intracellular amastigotes infecting THP-1 macrophages; assay: GSK intramacrophage L. donovani assay (LD AMMAC, inMac; Assay Conditions C); assay type: cell-based, Leishmania donovani; conditions: (LD MAC EC50)/(LD AMMAC EC50)
Summary of the method: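 L. donovani amastigotes within THP-1 macrophages; EC50 based on average intracellular amastigotes per infected cell (AMMAC). Infected-cell percentage (INFCELL) and host-cell number (MAC) also read, the latter as toxicity output.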

Structure (SMILES)	SI Host cell potency/L. donovani potency [1]	SI [1]	other results
COc1ccc(N2C(=O)c3[nH]nc(CC(C)C)c3C2c2ccccc2Cl)cn1 (stereo not shown) [BUCMD00686]	8.9		
CC(C)Cc1n[nH]c2c1C(c1ccccc1Cl)N(c1ccc3c(c1)OCO3)C2=O (stereo not shown) [CMLD010902]	76.4		
CC(C)Cc1n[nH]c2c1C(c1ccccc1Cl)N(c1ccc(N(C)C)cc1)C2=O (stereo not shown) [CMLD010920]	28.2		
CC(C)Cc1n[nH]c2c1C(c1ccccc1Cl)N(c1ccc3ncnn3c1)C2=O (stereo not shown) [CMLD010921]	>55.6		
Cc1cc(F)ccc1C1c2c(CC(C)C)n[nH]c2C(=O)N1c1ccc2ncnn2c1 (stereo not shown) [CMLD010948]	>24.4		
COc1cc(F)ccc1C1c2c(CC(C)C)n[nH]c2C(=O)N1c1ccc(Br)cc1 (stereo not shown) [CMLD011494]	33.7		
COc1ccccc1C1c2c(CC(C)C)n[nH]c2C(=O)N1c1ccc2c(c1)OCO2 (stereo not shown) [CMLD011546]	>74.1		
CC(C)Cc1n[nH]c2c1C(c1ccccc1Br)N(c1ccc3c(c1)OCO3)C2=O (stereo not shown) [CMLD011548]	>69.0		
COc1ccccc1C1c2c(CC(C)C)n[nH]c2C(=O)N1c1ccc(Br)cc1 (stereo not shown) [CMLD011549]	4.8		
CC(C)Cc1n[nH]c2c1C(c1ccccc1Br)N(c1ccc(Br)cc1)C2=O (stereo not shown) [CMLD011551]	12.8		
COc1ccccc1C1c2c(CC(C)C)n[nH]c2C(=O)N1c1ccc(N(C)C)cc1 (stereo not shown) [CMLD011552]	49.3		
CC(C)Cc1n[nH]c2c1C(c1ccccc1Br)N(c1ccc(N(C)C)cc1)C2=O (stereo not shown) [CMLD011554]	71.5		
Cc1cc(F)ccc1C1c2c(CC(C)C)n[nH]c2C(=O)N1c1ccc(N(C)C)cc1 (stereo not shown) [CMLD011561]	68.3		
COc1ccc(N2C(=O)c3[nH]nc(CC(C)C)c3C2c2ccc(F)cc2C)cc1F (stereo not shown) [CMLD011562]	68.1		
Cc1cc(F)ccc1C1c2c(CC(C)C)n[nH]c2C(=O)N1c1ccc2c(c1)OCO2 (stereo not shown) [CMLD011564]	120.8		
Cc1cc(F)ccc1C1c2c(CC(C)C)n[nH]c2C(=O)N1c1ccc(Br)cc1 (stereo not shown) [CMLD011565]	25.3		
COc1ccc(N2C(=O)c3[nH]nc(CC(C)C)c3C2c2ccccc2OC)cc1F (stereo not shown) [CMLD011566]	0.7		
COc1ccc(N2C(=O)c3[nH]nc(CC(C)C)c3C2c2ccccc2OC)cn1 (stereo not shown) [CMLD011567]	>76.9		
COc1cc(F)ccc1C1c2c(CC(C)C)n[nH]c2C(=O)N1c1ccc(N(C)C)cc1 (stereo not shown) [CMLD011572]	212.5		
COc1ccc(N2C(=O)c3[nH]nc(CC(C)C)c3C2c2ccc(F)cc2OC)cn1 (stereo not shown) [CMLD011574]	>23.0		

Structure (SMILES)	SI Host cell potency/L. donovani potency [1]	SI [1]	other results
COc1ccc(N2C(=O)c3[nH]nc(CC(C)C)c3C2c2ccccc2Br)cc1F (stereo not shown) [CMLD012217]	7.2		
COc1ccc(N2C(=O)c3[nH]nc(CC(C)C)c3C2c2ccccc2Br)cn1 (stereo not shown) [CMLD012218]	>54.1		
CC(C)Cc1n[nH]c2c1C(c1ccccc1Cl)N(c1ccc3c(c1)OCO3)C2=O (stereo not shown) [Compound 67, 5-(benzo[d][1,3]dioxol-5-yl)-4-(2-chlorophenyl)-3-isobutyl-4,5-dihydropyrrolo[3,4-c]pyrazol-6(1H)-one]		76.4	
Cc1cc(F)ccc1C1c2c(CC(C)C)n[nH]c2C(=O)N1c1ccc2c(c1)OCO2 (stereo not shown) [Compound 70, 5-(benzo[d][1,3]dioxol-5-yl)-4-(4-fluoro-2-methylphenyl)-3-isobutyl-4,5-dihydropyrrolo[3,4-c]pyrazol-6(1H)-one]		120.8	
COc1ccc(N2C(=O)c3[nH]nc(CC(C)C)c3C2c2ccccc2OC)cc1F (stereo not shown) [Compound 72, 5-(3-fluoro-4-methoxyphenyl)-3-isobutyl-4-(2-methoxyphenyl)-4,5-dihydropyrrolo[3,4-c]pyrazol-6(1H)-one]		0.7	
COc1ccc(N2C(=O)c3[nH]nc(CC(C)C)c3C2c2ccc(F)cc2C)cc1F (stereo not shown) [Compound 73, 4-(4-fluoro-2-methylphenyl)-5-(3-fluoro-4-methoxyphenyl)-3-isobutyl-4,5-dihydropyrrolo[3,4-c]pyrazol-6(1H)-one]		68.1	
CC(C)Cc1n[nH]c2c1C(c1ccccc1Br)N(c1ccc(Br)cc1)C2=O (stereo not shown) [Compound 74, 4-(2-bromophenyl)-5-(4-bromophenyl)-3-isobutyl-4,5-dihydropyrrolo[3,4-c]pyrazol-6(1H)-one]		12.8	
COc1ccccc1C1c2c(CC(C)C)n[nH]c2C(=O)N1c1ccc(Br)cc1 (stereo not shown) [Compound 75, 5-(4-bromophenyl)-3-isobutyl-4-(2-methoxyphenyl)-4,5-dihydropyrrolo[3,4-c]pyrazol-6(1H)-one]		4.8	
Cc1cc(F)ccc1C1c2c(CC(C)C)n[nH]c2C(=O)N1c1ccc(Br)cc1 (stereo not shown) [Compound 76, 5-(4-bromophenyl)-4-(4-fluoro-2-methylphenyl)-3-isobutyl-4,5-dihydropyrrolo[3,4-c]pyrazol-6(1H)-one]		25.3	
COc1cc(F)ccc1C1c2c(CC(C)C)n[nH]c2C(=O)N1c1ccc(Br)cc1 (stereo not shown) [Compound 77, 5-(4-bromophenyl)-4-(4-fluoro-2-methoxyphenyl)-3-isobutyl-4,5-dihydropyrrolo[3,4-c]pyrazol-6(1H)-one]		33.7	
CC(C)Cc1n[nH]c2c1C(c1ccccc1Cl)N(c1ccc(N(C)C)cc1)C2=O (stereo not shown) [Compound 78, 4-(2-chlorophenyl)-5-(4-(dimethylamino)phenyl)-3-isobutyl-4,5-dihydropyrrolo[3,4-c]pyrazol-6(1H)-one]		28.2	
COc1ccccc1C1c2c(CC(C)C)n[nH]c2C(=O)N1c1ccc(N(C)C)cc1 (stereo not shown) [Compound 80, 5-(4-(dimethylamino)phenyl)-3-isobutyl-4-(2-methoxyphenyl)-4,5-dihydropyrrolo[3,4-c]pyrazol-6(1H)-one]		49.3	
Cc1cc(F)ccc1C1c2c(CC(C)C)n[nH]c2C(=O)N1c1ccc(N(C)C)cc1 (stereo not shown) [Compound 81, 5-(4-(dimethylamino)phenyl)-4-(4-fluoro-2-methylphenyl)-3-isobutyl-4,5-dihydropyrrolo[3,4-c]pyrazol-6(1H)-one]		68.3	
COc1cc(F)ccc1C1c2c(CC(C)C)n[nH]c2C(=O)N1c1ccc(N(C)C)cc1 (stereo not shown) [Compound 82, 5-(4-(dimethylamino)phenyl)-4-(4-fluoro-2-methoxyphenyl)-3-isobutyl-4,5-dihydropyrrolo[3,4-c]pyrazol-6(1H)-one]		212.5	
COc1ccc(N2C(=O)c3[nH]nc(CC(C)C)c3C2c2ccnnc2)cc1 (stereo not shown) [Compound S9]			SI MAC [2]: 1.0
COc1ccc(N2C(=O)c3[nH]nc(CC(C)C)c3C2c2ccc(F)cn2)cc1 (stereo not shown) [Compound S10]			SI MAC [2]: >5.0
COc1ccc(N2C(=O)c3[nH]nc(CC(C)C)c3C2c2cncc(OC)c2)cc1 (stereo not shown) [Compound S11]			SI MAC [2]: 2.0
COc1ccc(N2C(=O)c3[nH]nc(CC(C)C)c3C2c2ccc(OC)nc2)cc1 (stereo not shown) [Compound S12]			SI MAC [2]: 1.0
COc1ccc(N2C(=O)c3[nH]nc(CC(C)C)c3C2c2ccc(F)c(C)n2)cc1 (stereo not shown) [Compound S13]			SI MAC [2]: >4.0
COc1ccc(N2C(=O)c3[nH]nc(CC(C)C)c3C2c2cc(F)nc(F)c2)cc1 (stereo not shown) [Compound S14]			SI MAC [2]: 1.0
